Results deposited as PubChem BioAssay AID1259414 (Drosophila RNAi Screening Center, 2018).
The deposit covers about 24,000 reagents; below is an unselected part of those that have a named target and a result. Over the whole deposit, about 1,210 (5%) are marked active. 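Inactive calls also include excluded dsRNAs with several or no targets, genes unexpressed in JW18, and well A1, regardless of score.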 Names joined by + are all predicted targets of the reagent.

Assay: 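Fly genes that alter Wolbachia amount inside host cells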 (primary screen)
Cell system: Drosophila JW18 cells infected with Wolbachia
Knock-down reagent: long dsRNA against Drosophila genes, 0.25 µg dsRNA per well of a 384-well plate
Time to read-out: 5 days
Conditions: cells persistently infected with Wolbachia before knock-down; no added drug
Detection: 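Imaged fluorescence in situ signal for Wolbachia 23S rRNA per DAPI-counted host cell, given as a robust z-score within each plate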
Reading the numbers: Wolbachia per cell robust z: higher = more Wolbachia per host cell than the plate typical
Hit rule: 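Active if absolute robust z reaches 1.5 in two or more of three replicates, leaving out multi- or no-target dsRNAs, genes unexpressed in JW18 and A1 wells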

| gene | amplicon | Wolbachia per cell robust z, rep 1 | Wolbachia per cell robust z, rep 2 | Wolbachia per cell robust z, rep 3 | call |
| --- | --- | --- | --- | --- | --- |
| betaTub56D | DRSC07583 | 1.79 | 0.529 | 1.31 | inactive |
| betaTub56D | DRSC23516 | 0.994 | 1.21 | 1.81 | inactive |
| CG34167 | DRSC38911 | -0.249 | 1.4 | 1.04 | inactive |
| ash2 | DRSC16902 | -0.593 | 0.504 | 0.711 | inactive |
| cpo | DRSC13265 | -0.763 | -0.722 | -0.438 | inactive |
| cpo | DRSC13273 | -1.96 | -1.34 | -5.09 | inactive |
| cpo | DRSC23006 | -1.09 | -1.6 | -0.0901 | inactive |
| cpo | DRSC25799 | -1.45 | -1.51 | -0.466 | inactive |
| cpo | DRSC38943 | 2.17 | 1.01 | 1.63 | inactive |
| DCAF12 | DRSC15475 | -7.42 | -2.85 | -1.35 | active |
| Arpc4 | DRSC02917 | 0.0843 | 0.0497 | -0.272 | inactive |
| Arpc4 | DRSC29608 | 0.00447 | -0.141 | 2.34 | inactive |
| CG14085 | DRSC10089 | -0.616 | 0.37 | -1.38 | inactive |
| CG17327 | DRSC15225 | 1.22 | -1.28 | -1.69 | inactive |
| CG11771 | DRSC14379 | -8.49 | 0.203 | 2.64 | inactive |
| CG11771 | DRSC27732 | -0.709 | -0.526 | -0.166 | inactive |
| CG4766 | DRSC17736 | 1.49 | -1.56 | -3.21 | inactive |
| CG43317 | DRSC15000 | 1.02 | 0.585 | -0.093 | inactive |
| CG18766 | DRSC15936 | -2.79 | 1 | 0.751 | inactive |
| CG18766 | DRSC25739 | -1.36 | -0.279 | 0.0604 | inactive |
| asRNA:CR43426 + CG32462 | DRSC29458 | 1.38 | 0.262 | 0.144 | inactive |
| pths | DRSC03171 | -9.55 | -1.25 | 0.808 | inactive |
| CG14693 | DRSC14916 | 1.05 | 0.42 | 0.534 | inactive |
| CG40298 | DRSC22274 | -0.147 | -1.13 | -1.31 | inactive |
| Art2 | DRSC00627 | -3.34 | 0.323 | -10.5 | inactive |
| CG42342 | DRSC13165 | 0.728 | 1.25 | -0.219 | inactive |
| CG42342 | DRSC15010 | -4.64 | 0.0585 | -5.03 | active |
| CG42342 | DRSC15011 | -5.67 | 0.953 | -0.229 | inactive |
| CG42342 | DRSC15012 | -0.587 | 0.491 | 0.124 | inactive |
| CG42342 | DRSC21791 | -1.44 | -1.82 | 0.685 | inactive |
| CG42342 | DRSC22861 | 0.847 | 0.297 | -0.377 | inactive |
| CG42342 | DRSC23112 | -0.864 | -0.375 | -4.51 | inactive |
| CG42342 | DRSC24200 | 1.43 | -0.648 | 1.03 | inactive |
| CG42342 | DRSC25912 | -1.24 | 0.554 | -0.362 | inactive |
| CG42342 | DRSC28157 | 0.11 | 0.854 | -0.306 | inactive |
| 5-HT2B | DRSC16360 | 0.714 | 0.227 | 0.357 | inactive |
| 5-HT2B | DRSC16362 | -1.09 | 0.718 | 0.794 | inactive |
| 5-HT2B | DRSC25577 | -0.339 | -0.467 | -0.954 | inactive |
| 5-HT2B | DRSC41313 | 0.319 | -0.698 | 0.254 | inactive |
| 5-HT2B | DRSC41314 | 1.14 | -2.36 | 0.41 | inactive |
| CG7407 | DRSC11824 | 0.869 | 0.708 | 0.308 | inactive |
| Dolk | DRSC07143 | -3.12 | 0.135 | 1.03 | inactive |
| CG10324 | DRSC14230 | 0.0448 | 1.81 | 0.724 | inactive |
| CG15221 | DRSC19659 | -0.258 | -3.67 | 0.0617 | inactive |
| CG13972 | DRSC14715 | -0.812 | 0.0122 | 0.863 | inactive |
| CG13972 | DRSC26881 | 0.411 | 0.0283 | -0.611 | inactive |
| fru | DRSC16953 | 0.344 | 0.623 | -2.84 | inactive |
| fru | DRSC24960 | 0.366 | -1.23 | -0.0968 | inactive |
| CG30083 | DRSC05572 | -0.175 | 0.723 | -0.49 | inactive |
| CG31675 | DRSC01825 | -0.341 | 0.566 | 0.748 | inactive |
| CG31675 | DRSC26340 | 1.22 | 0.68 | -0.234 | inactive |
| CG33791 + CG18170 | DRSC08601 | -3.45 | -2.57 | -0.892 | inactive |
| CG42446 + CG17931 | DRSC15293 | -3.56 | -1.65 | 0.166 | inactive |
| CCT3 | DRSC16602 | -1.04 | -0.00231 | 0.471 | inactive |
| fl(2)d | DRSC07620 | 0.643 | 1.79 | 1.72 | active |
| scw | DRSC01711 | 0.774 | 0.485 | -0.0937 | inactive |
| scw | DRSC21252 | 0.0231 | -0.585 | -0.38 | inactive |
| aralar1 | DRSC13987 | 0.345 | -0.501 | -0.56 | inactive |
| aralar1 | DRSC16901 | 0.387 | -0.348 | 0.167 | inactive |
| aralar1 | DRSC29693 | 0.954 | 0.962 | 0.638 | inactive |
| COX7AL2 | DRSC38937 | -1.21 | -1.09 | 0.367 | inactive |
| Usp7 | DRSC18909 | -0.47 | -0.861 | -0.393 | inactive |
| Usp7 | DRSC19604 | -4.58 | -3.97 | -1.44 | active |
| Usp7 | DRSC26109 | 1.04 | -0.459 | -1.3 | inactive |
| nw | DRSC06451 | -3.2 | -0.634 | -2.86 | inactive |
| nw | DRSC06749 | 0.417 | 0.419 | -0.39 | inactive |
| nw | DRSC06896 | -1.74 | -0.315 | -2.66 | inactive |
| nw | DRSC25619 | 0.175 | -0.107 | -12.3 | inactive |
| nw | DRSC29422 | -0.64 | -0.319 | -1.29 | inactive |

Copied from the list.
Under “Wolbachia per cell robust z, rep 3”, Usp7 [DRSC19604] is entered as -1.44
Under “Wolbachia per cell robust z, rep 1”, Dolk [DRSC07143] has -3.12
For “Wolbachia per cell robust z, rep 1”, CG43317 [DRSC15000] shows 1.02
Result of COX7AL2 [DRSC38937] under “call”: inactive
Under “Wolbachia per cell robust z, rep 1”, fl(2)d [DRSC07620] reads 0.643
Entry for CG33791 + CG18170 [DRSC08601] in “Wolbachia per cell robust z, rep 2”: -2.57
